Tested on: Shigella dysenteriae
Test: Antibacterial activity against Shigella dysenteriae PTCC 1188
Assay type: functional

GENTAMICIN
MIC: 0.5 µg/mL

Source: ChEMBL document CHEMBL4118244, “Design, synthesis and biological evaluation of benzofuran appended benzothiazepine derivatives as inhibitors of butyrylcholinesterase and antimicrobial agents” (Bioorg Med Chem, 2018)
